Measurements published in publication PMC9269068, “Ultrapotent antibodies against diverse and highly transmissible SARS-CoV-2 variants” (2021).

What was measured:
[1] = target: full-length S from SARS CoV-2 (WA-1) (SARS-CoV-2) (UniProt P0DTC2)
[2] = target: full-length S B.1.258.24 (N439K/D614G) (SARS-CoV-2) (UniProt P0DTC2)

Q: Which pseudovirus (lentivirus) neutralisation IC50, 293T-ACE2 cells; […] [1] does the source give for A19-61.1 here?
A: The pseudovirus (lentivirus) neutralisation IC50, 293T-ACE2 cells; […] was 0.0709 µg/mL.

Q: CB6 was tested. Which fold reduction in binding (MFI) against D614G [2] did it give?
A: The fold reduction in binding (MFI) against D614G was less than 2 fold.
